Values from PubChem BioAssay AID1259414 (Drosophila RNAi Screening Center, 2018)

- Screen: 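Genome-wide screen for host control of endosymbiont load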 (primary screen)
- Cells: Drosophila JW18 cells infected with Wolbachia
- Knock-down reagent: long dsRNA against Drosophila genes, 0.25 µg dsRNA per well of a 384-well plate
- Time to read-out: 5 days
- Treatment: cells persistently infected with Wolbachia before knock-down; no added drug
- Measurement: 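Imaged fluorescence in situ signal for Wolbachia 23S rRNA per DAPI-counted host cell, given as a robust z-score within each plate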
- Scale: Wolbachia per cell robust z: higher = more Wolbachia per host cell than the plate typical
- Active means: 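Active if absolute robust z reaches 1.5 in two or more of three replicates, leaving out multi- or no-target dsRNAs, genes unexpressed in JW18 and A1 wells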
In all, the deposit lists about 24,000 reagents; this is a random part of those that have a named target and a result. Over the whole deposit, about 1,210 (5%) are marked active. 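Inactive calls also include excluded dsRNAs with several or no targets, genes unexpressed in JW18, and well A1, regardless of score.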 A plus sign joins genes that one reagent is predicted to hit.

gene | PubChem SID | Wolbachia per cell robust z, rep 1 | Wolbachia per cell robust z, rep 2 | Wolbachia per cell robust z, rep 3 | Call
Myt1 | SID104191020 | 1.3 | -0.0413 | 1.09 | inactive
Myt1 | SID104208615 | 0.226 | -0.332 | -0.179 | inactive
CG4622 + CG11413 | SID104204702 | 0.306 | 1.35 | 0.729 | inactive
SkpC | SID104200167 | -1.28 | -3.34 | -1.2 | inactive
SkpC | SID104205470 | -1.84 | -6.09 | -1.07 | inactive
hng3 | SID104188159 | -3.72 | -0.0748 | 0.0515 | inactive
hng3 | SID104207806 | -0.774 | -1.31 | -2.8 | inactive
Ubc6 | SID104192162 | 0.188 | -0.16 | 0.771 | inactive
Ubc6 | SID104207406 | -1.4 | -0.774 | -0.848 | inactive
muc | SID104182624 | -0.878 | -0.94 | 0.325 | inactive
muc | SID104201556 | -0.369 | -0.593 | -0.864 | inactive
muc | SID104202909 | -0.516 | -0.403 | 0.0196 | inactive
Gsc | SID104180547 | 0.408 | 0.43 | -0.944 | inactive
Gsc | SID104204296 | 0.427 | 0.0577 | 0.429 | inactive
RpL27 | SID104195430 | -0.231 | 0.806 | 1.78 | inactive
RpL27 | SID104204434 | 0.872 | 3.46 | 3.53 | active
Tmc | SID104189968 | 0.884 | 1.36 | 1.04 | inactive
Tmc | SID104190148 | 0.263 | 1.06 | 1.54 | inactive
Tmc | SID104206427 | 0.34 | -0.379 | -0.24 | inactive
CG14313 | SID104194584 | 0.443 | 0.0522 | -0.00978 | inactive
CG13955 | SID104186235 | 1.47 | 1.74 | 1.21 | inactive
CG8065 | SID104190751 | 0.143 | 0.234 | 0.156 | inactive
CG1317 | SID104188097 | -1.25 | 0.254 | -1.21 | inactive
CG14752 | SID104186280 | 1.21 | 0.368 | -2.18 | inactive
CG33721 | SID104215383 | 0.203 | 0.51 | 0.544 | inactive
Dus4 | SID104181858 | -0.512 | -0.756 | -0.605 | inactive
Smyd4-1 | SID104186577 | 0.967 | 0.342 | 1.21 | inactive
Smyd4-1 | SID104205686 | 0.712 | -1.19 | -0.124 | inactive

Laid out differently: 3 of the entries above
| gene | PubChem SID | Wolbachia per cell robust z, rep 1 | Wolbachia per cell robust z, rep 2 | Wolbachia per cell robust z, rep 3 | Call |
| --- | --- | --- | --- | --- | --- |
| hng3 | SID104207806 | -0.774 | -1.31 | -2.8 | inactive |
| Ubc6 | SID104192162 | 0.188 | -0.16 | 0.771 | inactive |
| Ubc6 | SID104207406 | -1.4 | -0.774 | -0.848 | inactive |
